Reference: patent US20220356229A1 (published 2022)
Numbering of substitutions follows the chain as printed. Read-outs that look alike come from different tables or passages of the source.

B1: antibody 286 (antibody, V domains shown)
VH: QVHLVESGGGVVQPGKSLRLSCAGSGFIFSDFGMHWVRQSPGKGLEWVAVVSYDGSVTKYSDSFEGRFTISRDNSKNTLYLQMDSLRPDDTAIYYCAKGQGANLLHYWGKGILVTVSS
VL: DVVLTQSPLSLPVTLGQPASISCRSSESLVYTDGDTYLHWFHQRPGQSPRRLIYKVSNRDSGVPDRFSGSGSGTDFTLKISRVEAEDVGVYYCMQGTHWPFTFGPGTKVDIK
B2: antibody 287 (antibody, V domains shown)
VH: QLQLQESGPGLVKPSETLSLTCTVSGGSISSSSYYWGWIRQPPGKGLEWIGSIFYSGSTYYNPSLKSRVTIFVDTSKNQFSLKLSSVTAADTAVYYCARFDYQVVDLTGFDYWGQGTLVTVSS
VL: DIQMTQSPSSLSASVGDRVTITCRASQGIRNDLGWYQQKPGKAPKRLIYAASSLQSGVPSRFSGSGSGTEFTLTIRSLQPEDFATYYCLQYNSYPLTFGGGTKVEIK
B3: antibody 302 (antibody, V domains shown)
VH: QVQLVQSGAEVRKPGASVKVSCKVSGYTLSELSMHWVRQAPGKGLEWMGGFDPEDGERMYAQKFQGRVTMTEDTSTDTAYMELSSLRSEDTAIYYCTTDLSYLWSGKLEPDYWYFALWGRGTLVTVSS
VL: DIVMTQSPDSLAVSLGERATINCKSSQSVLYSSNNKNYLAWYQQKPGQAPKLLISWASTRESGVPDRFSGSGSGTEFTLTISSLQAEDVAVYYCQQYYGTPLTFGQGTKLEIR
B4: antibody 502 (antibody, V domains shown)
VH: QVQLVQSGAEVKKPGASVKVSCKASGYTFTSYYMHWVRQAPGQGLEWMGIINPSGGSTSYAQKFQGRVTMTRDTATSTVYMELSSLRSEDTAVYYCARGGGQISMIIVVMDDAFDIWGQGTMVTVSS
VL: EILMTQSPATLSVSPGERATLSCRASQSVSSNLAWYQQKPGQAPRLLIYGASTRATGIPARFSGSGSGTEFTLTISSLQSEDFAVYYCQQYNNWPYTFGQGTKLEIK
B5: antibody 508 (antibody, V domains shown)
VH: EVQLVQSGAEVKKPGATVKISCKVSGYTFTDYYMHWVQQAPGKGLEWMGLVDPEDGETIYAEKFQGRVTITADTSTDTAYMELSSLRSEDTAVYYCAVENMITFGGVIVKRGAFDIWGQGTMVTVSS
VL: DIQMTQSPSSLSASVGDRVTITCQASQDISNYLNWYQQKPGKAPKLLIYDASNLETGVPSRFSGSGSGTDFTFTISSLQPEDIATYYCQQYDNLPLFTFGPGTKVDIK
B6: antibody 518 (antibody, V domains shown)
VH: QVQLVESGGGVVQPGRSLRLSCAASGFTFSSYAMHWVRQAPGKGLEWVAVISYDGSNKYYADSVKGRFTISRDNSKNTLYLQMNSLRAEDTAVYYCAKPYSGSYWDAFDIWGQGTMVTVSS
VL: not shown
B7: antibody 528 (antibody, V domains shown)
VH: QVQLVQSGAEVKKPGSSVKVSCKASGGTFNSNSISWVRQAPGQGLEWMGRIIPILDITMYARKFQGRVTISADKSTGTAYMDLSSLRSEDTAVYYCATDRDDSSGDYYYGMDVWGQGTTVTVSS
VL: DIQMTQSPSSLSASVGDRVTITCRASLSISNYLNWYQQKPGKAPNLLIYAASTLQSGVPSRFSGSGSGTDFTLTISSLQPEDFATYYCQQTYITRWTFGQGTKVEIK
B8: antibody 530 (antibody, V domains shown)
VH: EVQLVESGGGLVQPGGSLRLSCAASGFTFSSYWMSWVRQAPGKGLEWVANIKQDGSEKYYVDSVKGRFTISRDNAKNSLYLQMNSLRAEDTAVYYCAREPQLWSEYYFDYWGQGTLVTVSS
VL: DIQMTQSPSSLSASVGDRVTITCRASQGISSWLAWYQQKPEKAPKSLIYAASSLQSGVPSRFSGSGSGTDFTLTISSLQPEDFATYYCQQYNSYPPTFGQGTRLEIK
B9: antibody 532 (antibody, V domains shown)
VH: EVQLVESGGGLVQPGGSLRLSCAASGIIVSSNYMSWVRQAPGKGLEWVSVIYSGGSTYYADSVKGRFTISRDNSKNTLYLQMNSLRAEDTAVYYCAREGLVGATLAFDYWGQGTLVTVSS
VL: not shown
B10: antibody 261 (antibody, V domains shown)
VH: QVQLVESGGGVVQPGRSLRLSCAASGFTFSSYAMHWVRQAPGKGLEWVAVISYDGSNKYYADSVKGRFTISRDNSKNTLYLQMNSLRAEDTAVYYCARDEAYYDILTGYINAPKNYYYYGMDVWGQGTTVTVSS
VL: B2 VL with R76S, Y91H, L96F, G100P, E105D
B11: antibody 268 (antibody, V domains shown)
VH: QVQLQESGPGLVKPSQTLSLTCTVSGGSISSGSYYWSWIRQPAGKGLEWIGRIYTSGSTNYNPSLKSRVTISVDTSKNQFSLKLSSVTAADTAVYYCARELVGGLLGTIDYWGQGTLVTVSS
VL: B8 VL with M4L, S10F, W32Y, E41G, S46L, S53T, D70E, Y91L, P96Y, R103K
B12: antibody 277 (antibody, V domains shown)
VH: B6 VH with K58T, K98R, W105F, D106N, A107W, I110P, M116L
VL: B3 VL with A49P, I54T, S55Y, E76D, G99S, Q106G, L110V, R113K
B13: antibody 278 (antibody, V domains shown)
VH: QVQLVQSGAEVKKPGASVKVSCKASGYTFTSYYMHWVRQAPGQGLEWMGIINPSGGSTSYAQKFQGRVTMTRDTSTSTVYMELSSLRSEDTAVYYCARDHSNADPYYDFWSGYYTRTYYYGMDVWGQGTTVTVSS
VL: not shown

Key:
[1] = biological target: T1, SARS-CoV-2 Spike (S) protein, wild type, full length (SARS-CoV-2, UniProt P0DTC2 14-1208); experiment: bead assay, flow cytometry
[2] = biological target: T1, SARS-CoV-2 Spike (S) protein, wild …; experiment: bead assay, flow cytometry; remark: listed apart in the source
[3] = biological target: T1, SARS-CoV-2 Spike (S) protein, wild …; experiment: bead assay, flow cytometry; remark: listed apart in the source
[4] = biological target: T1, SARS-CoV-2 Spike (S) protein, wild …; experiment: bead assay, flow cytometry; remark: listed apart in the source
[5] = biological target: T1, SARS-CoV-2 Spike (S) protein, wild …; experiment: bead assay, flow cytometry; remark: listed apart in the source
[6] = biological target: T1, SARS-CoV-2 Spike (S) protein, wild …; experiment: bead assay, flow cytometry; remark: listed apart in the source
[7] = biological target: T2, SARS-CoV-2 Spike (S) protein, wild type, full length (SARS-CoV-2, UniProt P0DTC2 14-1273); experiment: flow cytometry, CHO cells expressing full-length Spike
[8] = biological target: T2, SARS-CoV-2 Spike (S) protein, wild …; experiment: as above; remark: listed apart in the source
[9] = biological target: T2, SARS-CoV-2 Spike (S) protein, wild …; experiment: as above; remark: listed apart in the source
[10] = biological target: T2, SARS-CoV-2 Spike (S) protein, wild …; experiment: as above; remark: listed apart in the source
[11] = biological target: T2, SARS-CoV-2 Spike (S) protein, wild …; experiment: as above; remark: listed apart in the source

Row | Binder | bead binding signal (fold over isotype) [1] [fold over isotype] | bead binding signal (fold over isotype) [2] [fold over isotype] | bead binding signal (fold over isotype) [3] [fold over isotype] | bead binding signal (fold over isotype) [4] [fold over isotype] | bead binding signal (fold over isotype) [5] [fold over isotype] | bead binding signal (fold over isotype) [6] [fold over isotype] | median fluorescence, fold over isotype control [7] [fold over isotype] | median fluorescence, fold over isotype control [8] [fold over isotype] | median fluorescence, fold over isotype control [9] [fold over isotype] | median fluorescence, fold over isotype control [10] [fold over isotype] | median fluorescence, fold over isotype control [11] [fold over isotype]
1 | B1 | 9.93 | 228 | 48.4 | 64.3 | 228 |  |  |  |  |  | 
2 | B2 | 206 | 712 | 548 | 474 | 1020 | 573 |  |  |  |  | 
3 | B3 | 17.4 | 532 | 388 | 133 | 921 | 571 |  |  |  |  | 
4 | B4 |  |  |  |  |  |  | 7.68 | 28.6 | 18.5 | 19 | 14.7
5 | B5 |  |  |  |  |  |  | 1.48 |  | 2.94 | 2.5 | 1.11
6 | B6 |  |  |  |  |  |  | 8.31 | 16.5 | 8.65 | 10.4 | 7.25
7 | B7 |  |  |  |  |  |  | 2.99 | 23.2 | 11.9 | 8.72 | 5.31
8 | B8 |  |  |  |  |  |  | 2.02 | 11.8 | 5.76 | 3.97 | 2.24
9 | B9 |  |  |  |  |  |  | 14.5 | 40.2 | 15.2 | 27.7 | 20.1
10 | B10 | 47.4 | 543 | 445 | 160 | 997 | 620 |  |  |  |  | 
11 | B11 | 30.3 | 298 | 0.98 | 111 |  | 513 |  |  |  |  | 
12 | B12 | 121 | 548 | 483 | 321 | 868 | 507 |  |  |  |  | 
13 | B13 | 3.29 | 120 | 185 | 14.8 | 556 | 321 |  |  |  |  | 
